# Assays:
# [1] = target: NA of recombinant WT A/Turkey/15/06 (H5N1) virus (Influenza A virus (A/Turkey/15/2006(H5N1)), UniProt A5HJ19); assay: NA enzyme inhibition assay (MUNANA), WT virus
# [2] = target: NA of recombinant WT A/Turkey/15/06 (H5N1) virus (Influenza A virus (A/Turkey/15/2006(H5N1)), UniProt A5HJ19); assay: NA enzyme kinetics (Ki), WT virus
Structure (SMILES),Mean fold change in IC50 compared to WT [1] [fold],Mean fold change in Ki compared to WT [2] [fold]
CCC(CC)O[C@@H]1C=C(C(=O)O)C[C@H](N)[C@H]1NC(C)=O,1.0,1.0
CCOC(=O)C1=C[C@@H](OC(CC)CC)[C@H](NC(C)=O)[C@@H](N)C1,1.0,–
CC(=O)N[C@H]1[C@H]([C@H](O)[C@H](O)CO)OC(C(=O)O)=C[C@@H]1N=C(N)N,1.0,1.0

# Reference: article PMC2877746
